The values below come from PMC3796514.

For at least one entry, the source does not settle the construct or the ends of the probe.

For this series, the target named is HapRV2G (functional wild-type HapR) (UniProt Q4F6W7). Description: EMSA. The following applies: recombinant protein; residues 1-203; protein details: N-terminal 6xHis (pET15b); label: 32P end label; probe letters rebuilt from the primers and the genome.
In the case of “GAGTGAAGGCCAAAGTCATTGGGTCTATTTTAAAGCGATTGATAATGCCCCAGCCGCCAGCTTTGCTTCGGAAAATATTCGACTTTCTTGTAAACAAGCAATAAATCAAGGGCTGATCAAAGTTCACTCTTCTTATAAGAATGAGGACAACATCAAAAAACTCTTAAAAGATGGATAAATGCTGCCCAGTCGGCATAAACACTGGGTGACGCCAGCAAAATATTTGTTATTATCGACAAATCAATAAATAGGATCAGGATTGATCCTCAACTATCCAGTTTGTTGTACATGGGCGTTCTAGAACAAGATATCCAAGCAGAGCTTCAAAAACTGAAATCTCAGTTAGAACAAGTACGTTTGACACAAAGGGATACTTCGTTCAAATTTAACCGAGAGCAGCAAGTTCTTAAACGAATGGTCACTTCCTTGGCTACGACTTGCCGCGGCAGTAGCTCTCGACTAAACCA (double strand) [vc0900 promoter]”, the binding result is on record as “binds”.

Turning to “GATCGGGATCCGATAACGTGTGGTAATGACATGTCTTCAATCCAAAAATTAAGTCAACATAAACCTCTATCTAAACGGTTGTTGTGCTTCTAATGGCACTCATATCAACGCATTTAAATACCTGCAGCGCAAAATTCGGCTGCTTATGTCACCTTATCAAGCCGGTTATCACCTAGAGTGGCGTATGTCTTTGCATACTTTAACTGTGAGATTGCTTTACATTACTTATCACAGAGGGAACGTAGTATATCTAAATAATAAGCATAAAGTGGAATACAAATATGCTGATTAGTCGAAAAACTGACATTATTCTCAATAATGAAAAAATGTAAAACAAAAGGCCACAAAGTTGTGACCTTTTAGTTTTTTATACTGACATTTAGCGATTTGTTAACCAGTATTGCGCATTCGAATTCCGATC (double strand) [aphA promoter]”, the binding result was “binds”.

With “GGAATTCGACTCATGGGGACTTGCTGCTAACGTTGGCTTTGATTATATGCTCAATGATAGCTGGTTCCTCAACGCTTCTGTGTGGTATGCCAATATTGAAACAACGGCAACCTACAAAGCAGGTGCAGATGCCAAATCCACGGATGTTGAAATCAATCCTTGGGTATTTATGATCGCGGGTGGTTATAAGTTCTAACGCCCTATTTCGAAAATAAAGCCGCGAAATCGCGGCTTTATTTTTTTGTGGCCTCGATTTCATCATTTTTAGCGGTAGTGATTGTTTTCTAACGTAATCTCCATTCAGAGCCTGAGACGTACGTCAATCCCCTGTTGATACTGATAAATAGGTGTCAAATTTTAAAGGCGCAAACCTATCAGTAAGATTCTATCTTTATGATTTTCTTTTGTTTATTTCTGGCTTTCTTATCGAGTATTCCTACTTACTGAGTAGTTTGTGACACGTAAAGTGCACACTTTTTATTAACATTTTTTTAACTTTGGTTTGGTGTTTTTCATTGACTTGTACCACTTTGATTGAACGCGGTATTTCGCGTGCAATCGGCGTTGATGGGAGCGGTTCAACGCTTAATACATTCAACATCTCTAGGATTGAGAAATGAAAATGATACAACGTCCTCTGAATTGGTTAGTTCTGGCCGGAGCGGCAACTGAGAATTCC (double strand) [hapA promoter]”, the binding result is reported as “binds”.
